Test system: C. albicans (MYA-2876)
Format: cell-based, Candida albicans

Row | Compound | change in MIC or MFCs after serial passaging | other results
1 | Nc1nc(=O)[nH]cc1F [5-fluorocytosine, reference compound] |  | increase of MIC and MFC values after serial passaging (C. albicans, daily exposure to 1/10th of MIC, by passage 21): 32 fold
2 | NCCN(CCN)/[N+]([O-])=N/O [DETA/NO, diethylenetriamine/NO] | no change | 
3 | NCCCN(CCCN)/[N+]([O-])=N/O [DPTA/NO, bis(3-aminopropyl) amine/NO] | no changes | 
4 | NCCCNCCCCN(CCCN)/[N+]([O-])=N/O [SPER/NO, spermine/NO] | no changes | 
5 | Clc1ccc(COC(Cn2ccnc2)c2ccc(Cl)cc2Cl)c(Cl)c1 (centres unmarked) [miconazole, reference compound] |  | outcome of passaging at sub-MIC dose: death of C. albicans after the second passage
